The assay has as its system acycloguanosine-resistant and TK− strains of HSV-1.

For the compound `CC[C@H](CO)Nc1nc(NCc2ccccc2)c2ncn(C(C)C)c2n1` [Rosco, Roscovitine], the “replication of acycloguanosine-resistant and TK− strains of HSV-1” value is “efficiently”.

For the origin of these results see US20030099944A1, “Combination therapy involving drugs which target cellular proteins and drugs which target pathogen-encoded proteins” (priority 1998, published 2003).
